Among the data in paper PMC7098451 are Km values, retold here.

The data set has as its system Nc1ccn([C@@H]2O[C@H](COP(=O)(O)OP(=O)(O)OP(=O)(O)O)[C@@H](O)[C@H]2O)c(=O)n1. The data set can be described thus: purified protein. The following applies: pH 8.5; 37.0 °C.

Broadly, the Km is the substrate concentration at which the rate is half of its maximum. “LpCLS (Legionella pneumophila CMP-Leg5,7Ac2 synthetase) (Legionella pneumophila subsp. pneumophila str. Philadelphia 1)”: the Km turned out to be 1100 ± 200 µM.
